Data taken from patent publication US20050267051A1, “Antineoplastic and anti-HIV conjugates of steroid acid and nucleosides” (priority 2003, published 2005).

Tested on: HIV-1
Test: Anti-HIV assay with T4 lymphocytes (CEM-SS cell line), XTT, protection against HIV cytopathic effects
Assay type: cell-based
From the text: The ester conjugates were subjected to standard in vitro anti-HIV bioassays [see: with T4 lymphocytes (CEM-SS cell line) according to the standard assays described, for example in Bourinbaiar AS, Lee-Huang S. Contraception 1995; 51:319-22 and http://www.iaen.org/files.cgi/7014_Bourinbaiar.pdf. Drug efficacy (EC50) was obtained by adding HIV and AZT conjugate to the cell to measure protection of the drug against HIV-induced celldeath. The cytotoxicity (IC50) data was obtained from adding only the conjugate to the cell to measure cell death caused by the agent. The therapeutic index (TI) is the ratio IC50/EC50. […] These two active agents appear to have less cytotoxicity and weaker anti-HIV potency than AZT. […] This intriguing profile of conjugate (4) prompted further evaluations of its growth inhibition in comparison to (5) and (6).
The anti-HIV assay was carried out with T4 lymphocytes (CEM-SS cell line) through the following standard procedure. Agent is dissolved in dimethyl sulfoxide and diluted 1:100 in cell culture medium before preparing serial half-log 10 dilutions. […] Individual wells are analyzed spectrophotometrically to quantitate formazan production, and in addition are viewed microscopically for detection of viable cells and confirmation of protective activity. […]

SMILES: Cc1cn(C2C[C@H](N=[N+]=[N-])C(COC(=O)[C@@H]3OC(C)(C)O[C@@]34CCC3C5CCC6=CC(=O)C=CC6(C)C5C(O)CC34C)O2)c(=O)[nH]c1=O (stereo partly drawn) [compound 6, 3′-Azido-3′-deoxythymidine-5′-[11β-hydroxy-17,20α-isopropylidenedioxy-3-oxo-1,4-pregnadiene-21-oate]]
- TI (IC50/EC50), therapeutic index: 184

SMILES: COC(OC)C(=O)[C@H]1[C@H](C(=O)OC[C@H]2O[C@@H](n3cc(C)c(=O)[nH]c3=O)C[C@@H]2N=[N+]=[N-])C[C@H]2[C@@H]3CCC4=CC(=O)C=C[C@]4(C)[C@H]3[C@@H](O)C[C@@]21C [compound 5, 3′-Azido-3′-deoxythymidine-5′-[21,21-dimethoxy-3,20-dioxo-11β-hydroxy-1,4-pregnadiene-16α-carboxylate]]
- TI (IC50/EC50), therapeutic index: 370
